From patent publication US20170224664A1, “POWDER ORAL SUSPENSION FORMULATIONS OF ANTIBACTERIAL AGENTS” (Cempra Pharmaceuticals, Inc., priority 2014, published 2017)

Test system: human test subjects
Experiment: Threshold bitterness
Assay type: in vivo
Conditions: 5-60 μg/mL in pH 6.0 phosphate buffer, 10 mL in mouth for 10 seconds

CC[C@H]1OC(=O)[C@@](C)(F)C(=O)[C@H](C)[C@@H](O[C@@H]2O[C@H](C)C[C@H](N(C)C)[C@H]2O)[C@](C)(OC)C[C@@H](C)C(=O)[C@H](C)[C@H]2N(CCCCn3cc(-c4cccc(N)c4)nn3)C(=O)O[C@]12C [SOL, solithromycin]
threshold or breakthrough bitterness relative to azithromycin: double that of azithromycin | threshold or breakthrough bitterness relative to clarithromycin: half that of clarithromycin
